Here are results for 1 compound from ChEMBL document CHEMBL5532636, “An overview of anti-SARS-CoV-2 and anti-inflammatory potential of baicalein and its metabolite baicalin: Insights into molecular mechanisms” (Eur J Med Chem, 2023).

Molecules are shown by their SMILES. Some results are limits rather than exact numbers.

The target of the assay is Replicase polyprotein 1ab (Severe acute respiratory syndrome coronavirus 2) (UniProt P0DTD1). The experiment in a line: Inhibition of full-length SARS-CoV-2 PLpro expressed in Escherichia coli BL21(DE3) using RLRGG-AMC as substrate at 50 uM preincubated for 10 mins followed by substrate addition measured for 5 mins by FRET assay relative to control. As to conditions: time 15.0 min.

A word on the inhibition: it is the change of the read-out against control, counted positive when it falls.

`O=C(O)[C@H]1O[C@@H](Oc2cc3oc(-c4ccccc4)cc(=O)c3c(O)c2O)[C@H](O)[C@@H](O)[C@@H]1O` [BAICALIN] came in with an inhibition below 50%.
